We go through 1 sequence from article PMC5552913.

In the series the test system is His-CalR (Vibrio parahaemolyticus RIMD 2210633). Nature of the series: EMSA. As to conditions: salmon sperm DNA competitor, dose dependent; 10 mM Tris-HCl pH 7.5, 50 mM NaCl, 1 mM MgCl2, 0.5 mM EDTA, 0.5 mM DTT; room temperature, 20 min (EMSA) or 30 min (footprinting); recombinant protein; residues 1-319; protein details: 6xHis (pET28a, BamHI/HindIII); probe letters rebuilt from the primers and the genome.

Turning to “CGAAATCAGCGATATTGTTGTTTGCGCCTGCATCGCCTAGATACGTGTCATTGTCACTTGTGCTCATTTTTATTCCCTCTGGCTTATTTATTGAATAGACCTTTTATTCCACGTCTGATGAGATTCGTTCCAGACATGAGAAGTCTAATAGCCAAGTGGATAAGAATGAGTTTGAATATGGGATGATATTTCTAACTGACCTTTTAATTATAAATATAAAACTTAGTACTTTATCTATTGTTTTCTTTTAATTACATGCAGTTATTCCTAGTACTAGAGGTTTCTTTTTGCCCAACTTGTGGCTTGCGTCCTA (double strand) [mfpABC promoter EMSA fragment]”, the binding result is “binds”.
